Test system: elongation factor-2 (EF-2)

## wild type DT382 (sequence left out)
  IVTT Activity: 1
  Relative Activity (IVTT): 1

Reference: US20090221500
